These results are taken from patent publication US20070224205.

The target in this experiment is Toll-like Receptor 5, not stated, O60602 21-858. The experiment can be described thus: cell-based or functional assay.

For the substance STF2Δ.EIII+, the TLR5 specific-activity relative to STF2.OVA turned out to be 10 fold.
